{"source": "paper PMC2625307", "about": "(Journal of molecular biology, 2008)", "key": {"HXBc2 gp120": {"molecular_target": "HXBc2 gp120 (Human immunodeficiency virus type 1 group M subtype B, UniProt P04578)", "assay": "Surface-plasmon resonance binding, HXBc2 gp120", "set-up": "species or system HIV-1"}, "HIV-1 gp120": {"test_system": "HIV-1 gp120", "conditions": "cited from earlier work"}, "YU2 gp120": {"molecular_target": "YU2 gp120 (Human immunodeficiency virus type 1 group M subtype B, UniProt P35961)", "assay": "Surface-plasmon resonance binding, YU2 gp120", "set-up": "species or system HIV-1"}, "[1]": {"test_system": "diverse panel of envelope clones", "assay": "Viral neutralization over the whole panel of isolates", "assay_type": "cell-based, HIV-1 group M and SIVcpz"}}, "data": [{"compound": "CC(C)C[C@@H]1NC(=O)CNC(=O)[C@H](CC(C)C)NC(=O)[C@H](CO)NC(=O)[C@H](CCCCN)NC(=O)[C@@H]2CSSC[C@@H](C(=O)N[C@H](C(N)=O)C(C)C)NC(=O)[C@H](C)NC(=O)[C@@H]3CSSC[C@H](NC(=O)[C@H](Cc4ccccc4)NC(=O)[C@H](Cc4c[nH]cn4)NC(=O)[C@H](CC(C)C)NC(=O)[C@H](CC(N)=O)NC(=O)CCSSC[C@H](NC(=O)[C@H](CCCCN)NC(=O)CNC(=O)[C@H](CC(C)C)NC1=O)C(=O)N[C@@H](C)C(=O)NCC(=O)N[C@@H](CO)C(=O)N[C@@H](Cc1ccc(-c4ccccc4)cc1)C(=O)N3)C(=O)N[C@@H](CCC(N)=O)C(=O)N[C@@H](CC(C)C)C(=O)N[C@@H](CCCNC(=N)N)C(=O)N2", "note": "[CD4M33]", "values": [{"measurement": "Kd", "setting": "HXBc2 gp120", "result": "10.8 ± 0.14", "unit": "nM"}, {"measurement": "affinity to gp120", "setting": "HIV-1 gp120; ref [23]", "result": "nanomolar affinity"}, {"measurement": "affinity enhancement by the biphenyl moiety over phenyl derivative", "setting": "HIV-1 gp120; vs phenyl derivative (printed [Phe^23]M47), ref [24]", "result": "about 10 fold"}]}, {"compound": "CC(C)C[C@@H]1NC(=O)CNC(=O)[C@H](CC(C)C)NC(=O)[C@H](CO)NC(=O)[C@H](CCCCN)NC(=O)[C@@H]2CSSC[C@@H](C(=O)N[C@H](C(N)=O)C(C)C)NC(=O)[C@H](C)NC(=O)[C@@H]3CSSC[C@H](NC(=O)[C@H](Cc4ccccc4)NC(=O)[C@H](Cc4c[nH]cn4)NC(=O)[C@H](CC(C)C)NC(=O)[C@H](CC(N)=O)NC(=O)CCSSC[C@H](NC(=O)[C@H](CCCNC(=N)N)NC(=O)CNC(=O)[C@H](CC(C)C)NC1=O)C(=O)N[C@@H](C)C(=O)N1CCC[C@@H]1C(=O)N[C@@H]([C@@H](C)O)C(=O)N[C@@H](Cc1ccccc1)C(=O)N3)C(=O)N[C@@H](CCC(N)=O)C(=O)N[C@@H](CC(C)C)C(=O)N[C@@H](CCCNC(=N)N)C(=O)N2", "note": "[[Phe^23]M47]", "values": [{"measurement": "Kd", "setting": "HXBc2 gp120", "result": "6.24 ± 0.1", "unit": "nM"}, {"measurement": "Kd", "setting": "YU2 gp120", "result": "3.87 ± 0.1", "unit": "nM"}, {"measurement": "intercept potency of ΔΔG^N vs genetic distance, reduction", "setting": "[1]", "result": "about 0.5 kcal/mol"}]}]}
